Results: paper PMC6967409 (Frontiers in Chemistry, 2020)

Tests used:
[1] = tested on: HepG2 cells; assay: HepG2 cytotoxicity bioluminescence assay (CellTiterGlo, ATP); format: cell-based, human; conditions: selectivity index
Experimental: Briefly, HepG2-CD81 cells were seeded into 1,536 well plates containing 50 nL of test and control compounds diluted into DMSO. […] Next, 2 μL of luciferin reagent (Promega BrightGlo) was added to each well and luciferase activity was detected using a Perkin Elmer Envision plate reader. […] In parallel, plates were processed without sporozoites for HepG2 toxicity measurements.
In continuation of the transmission blocking theme, it is important to establish activities against liver stage parasites. […] This assay uses ultra-high-throughput screening methods optimized for a 1536-well format and a HepG2 human hepatoma cell line. […] To establish selectivity of the compounds for the parasite in the liver stage of infection, cytotoxicity was determined by measuring bioluminescence from the reaction between free ATP of compound-treated, uninfected hepatocytes and a luciferase reporter system.

[2] = tested on: HepG2 cells; assay: Cytotoxicity, Cytoselect LDH cytotoxicity assay kit; format: cell-based, human; conditions: selectivity index
Experimental: (§1) Cytotoxicity (EC50) was determined against Chinese hamster ovarian (CHO) using a 3-(4,5-dimethylthiazol-2-yl)-2,5-diphenyltetrazolium bromide (MTT) assay and hepatocellular carcinoma cells (HepG2) using the Cytoselect LDH cytotoxicity assay kit (Cell Biolabs).

[3] = tested on: Chinese hamster ovarian (CHO) cells; assay: Cytotoxicity, MTT assay; format: cell-based; conditions: selectivity index
Experimental: as §1

[4] = tested on: P. falciparum NF54 late stage gametocytes (>90% stage IV and V); parameters: method as in Coertzen et al. (2018); conditions: ref Coertzen et al. (2018); cited from earlier work

Compound	SI (EC50 HepG2/IC50 NF54) [2]	SI (EC50 CHO/IC50 NF54 proliferative assay) [3]	further results
O=C1C(O)=C([C@H]2CC[C@H](c3ccc(Cl)cc3)CC2)C(=O)c2ccccc21 [Atovaquone]			SI (EC50 HepG2/IC50 P. berghei sporozoites) [1]: >100
CCCCS(=O)(=O)N1CCN([C@@H]2O[C@@H]3O[C@@]4(C)CC[C@H]5[C@H](C)CC[C@@H]([C@H]2C)[C@@]35OO4)CC1 [Compound 13]	1007.4		
CC(=O)Nc1ccc(S(=O)(=O)N2CCN([C@@H]3O[C@@H]4O[C@@]5(C)CC[C@H]6[C@H](C)CC[C@@H]([C@H]3C)[C@@]46OO5)CC2)cc1 [Compound 15]	723		
C[C@H]1[C@H](N2CCN(S(=O)(=O)c3cccc(C(F)(F)F)c3)CC2)O[C@@H]2O[C@@]3(C)CC[C@H]4[C@H](C)CC[C@@H]1[C@@]24OO3 [Compound 16]	126.7		
C[C@H]1[C@H](N2CCN(S(=O)(=O)c3cccc(F)c3)CC2)O[C@@H]2O[C@@]3(C)CC[C@H]4[C@H](C)CC[C@@H]1[C@@]24OO3 [Compound 17]	205.5	6,322	
C[C@H]1[C@H](N2CCN(S(=O)(=O)c3ccc(C(F)(F)F)cc3)CC2)O[C@@H]2O[C@@]3(C)CC[C@H]4[C@H](C)CC[C@@H]1[C@@]24OO3 [Compound 18]	15.63	11,071	
C[C@H]1[C@H](N2CCN(S(=O)(=O)c3ccc(F)cc3)CC2)O[C@@H]2O[C@@]3(C)CC[C@H]4[C@H](C)CC[C@@H]1[C@@]24OO3 [Compound 19]	164.1		
C[C@H]1[C@H](N2CCN(C(=O)Nc3ccc(C(C)(C)C)cc3)CC2)O[C@@H]2O[C@@]3(C)CC[C@H]4[C@H](C)CC[C@@H]1[C@@]24OO3 [Compound 22]	329.4	1,561	
C[C@H]1[C@H](N2CCN(C(=O)Nc3ccc(C(F)(F)F)cc3)CC2)O[C@@H]2O[C@@]3(C)CC[C@H]4[C@H](C)CC[C@@H]1[C@@]24OO3 [Compound 23]	292.3	119,354	SI (EC50 HepG2/IC50 P. berghei sporozoites) [1]: 66.0
C[C@H]1[C@H](N2CCN(C(=O)Nc3ccc(F)cc3)CC2)O[C@@H]2O[C@@]3(C)CC[C@H]4[C@H](C)CC[C@@H]1[C@@]24OO3 [Compound 24]		156,923	SI (EC50 HepG2/IC50 P. berghei sporozoites) [1]: 48.9
C[C@H]1[C@H](NS(=O)(=O)N2CCN(c3ccccn3)CC2)O[C@@H]2O[C@@]3(C)CC[C@H]4[C@H](C)CC[C@@H]1[C@@]24OO3 [Compound 29]	40.1		
C[C@H]1[C@H](NS(=O)(=O)N2CCN(c3ccc(C(F)(F)F)cn3)CC2)O[C@@H]2O[C@@]3(C)CC[C@H]4[C@H](C)CC[C@@H]1[C@@]24OO3 [Compound 30]	94.3	10,393	
CC1CCC2C(C)C(N3CCNCC3)OC3OC4(C)CCC1C32OO4 (stereo not shown) [DHA-piperazine 9]			Fold change preference ratio: EG to LG [4]: 0.47; Fold change preference ratio: LG to EG [4]: 2.1
COc1ccc(C[C@H](N)C(=O)N[C@H]2[C@@H](O)[C@H](n3cnc4c(N(C)C)ncnc43)O[C@@H]2CO)cc1 [Puromycin]			SI (EC50 HepG2/IC50 P. berghei sporozoites) [1]: 5.15
